Assay results as given in PMC7765500 (Journal of Fungi, 2020).

Test: general procedure: Fmoc solid-phase peptide synthesis; rink amide resin and 2-Chlortrityl resin; HATU (conjugation)
Conditions: whole synthesis, analytical RP-HPLC

In the case of H-[dR][dK][dK][dW][dF][dW]-NH2, the “final HPLC purity” value is reported as 96% purity.

Square brackets hold non-standard residues; d marks the D form.
